## Mutational interference map of HIV-1 RNA dimerization

From the data files of Ye et al. 2022, doi:10.1038/s41594-022-00746-2.

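Randomly mutated transcripts starting with one, two or three G (1G, 2G, 3G), capped or uncapped, were folded for 30 min at 37 °C. High salt was 300 mM KCl and 5 mM MgCl2, low salt 40 mM KCl and 0.1 mM MgCl2; monomer and dimer were parted on a native gel. Kdimer compares mutation frequencies in monomer and dimer, corrected for sequencing errors.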

The 5' region of HIV-1 NL4-3 RNA (positions 1-437):
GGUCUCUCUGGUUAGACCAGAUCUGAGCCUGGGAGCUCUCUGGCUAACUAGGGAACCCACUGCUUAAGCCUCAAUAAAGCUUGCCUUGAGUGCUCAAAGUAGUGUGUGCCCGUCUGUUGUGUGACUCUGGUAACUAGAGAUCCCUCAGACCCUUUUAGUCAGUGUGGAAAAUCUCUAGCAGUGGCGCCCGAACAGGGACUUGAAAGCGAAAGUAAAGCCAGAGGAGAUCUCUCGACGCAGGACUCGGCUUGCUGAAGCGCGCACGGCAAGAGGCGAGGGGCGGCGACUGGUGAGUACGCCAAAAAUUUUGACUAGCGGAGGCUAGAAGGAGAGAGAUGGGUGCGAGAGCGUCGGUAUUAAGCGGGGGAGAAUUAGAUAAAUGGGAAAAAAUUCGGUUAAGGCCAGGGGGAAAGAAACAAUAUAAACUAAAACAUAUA

Scale: median log2 Kdimer over the changes at a position; positive = changes inhibit dimerization, negative = changes enhance it.
One numbering serves 1G, 2G and 3G.
A position is written with its base.

position,domain,3G capped high-salt,1G capped high-salt,1G uncapped high-salt,2G uncapped high-salt
A169,PBS,0.05,0.01,0.01,0.03
A170,PBS,0.09,0.11,0.07,0.14
A171,PBS,0.07,0.03,0.08,0.10
U172,PBS,-0.03,-0.16,0.28,0.17
C173,PBS,-0.25,-0.48,-0.02,-0.05
U174,PBS,-0.47,-0.28,0.10,-0.21
C175,PBS,-0.21,-0.32,0.00,0.12
U176,PBS,-0.12,-0.21,0.27,0.16
A177,PBS,-0.08,0.11,0.17,0.24
G178,PBS,0.21,0.11,0.22,0.35
C179,PBS,-0.37,-0.39,-0.03,0.02
A180,PBS,-0.11,-0.07,0.19,0.11
G181,PBS,-0.25,-0.29,-0.20,0.00
U182,PBS,0.29,0.24,0.16,0.01
G183,PBS,-0.12,-0.23,0.23,0.23
G184,PBS,0.07,0.29,0.37,0.22
C185,PBS,-0.09,0.04,0.16,-0.10
G186,PBS,-0.25,-0.35,0.02,0.01
C187,PBS,0.00,0.10,-0.10,-0.04
C188,PBS,0.29,0.28,0.06,0.03
C189,PBS,0.00,0.10,0.14,0.00
G190,PBS,0.23,0.28,0.12,0.16
A191,PBS,-0.03,0.14,0.02,0.05

The first 3 entries again:

* A169 (domain PBS) -> 3G capped high-salt 0.05; 1G capped high-salt 0.01; 1G uncapped high-salt 0.01; 2G uncapped high-salt 0.03
* A170 (domain PBS) -> 3G capped high-salt 0.09; 1G capped high-salt 0.11; 1G uncapped high-salt 0.07; 2G uncapped high-salt 0.14
* A171 (domain PBS) -> 3G capped high-salt 0.07; 1G capped high-salt 0.03; 1G uncapped high-salt 0.08; 2G uncapped high-salt 0.10